From patent US20230374114A1, “Coronavirus antibodies and methods of use thereof” (Dana-Farber, published 2023)

Target: D614G Spike (SARS-CoV2, UniProt P0DTC2 16-1213)
Assay: biosensor kinetics; scFv-Fc loaded at 1 ug/ml, spike as analyte at 48.3 nM

B1: Ab 38 (scFv, V domains shown)
VH: QVTLKESGPTLVKPTQTLTLTCTFSGFSLTTSGVSVGWIRQPPGKALEWLALIHWDDDKRYSPSLRSRLTITRDTSKNQVVLTVTDMDPADTGTYYCASFIMTVYAEYFEDWGQGTLVTVSS
VL: EIVLTQSPATLSVSPGERATLSCRASQSVSSNLAWYQQKPGQAPRLLMYDVSTRATGIPARFSGSGSGTEFSLTISSLQSEDFAVYYCQQRGAWPLTFGGGTKVEIK
notes: also called Ab 38 scFv-Fc
Response: 0.328
